Drawing on patent US20150376238A1, “Polypeptides for treating and/or limiting influenza infection” (University of Washington, published 2015), this text covers Kd for one molecule.

In this experiment the target is H2 hemagglutinin (A/Adachi/2/1957) (Influenza A virus A/Adachi/2/1957 (H2N2)). The experiment is described as follows: yeast surface display titration.

B1: 52alt1-3 (designed binder)
chain: GIVNVPNPNTTKYQQLARSAIAIYNNHQNAHLEFVENLNVKEQVSYGAMYYITLAATDDAGKKKIYKAKVGVVESAGWVGVEEFKLV
B1 yielded a Kd of 8.5 nM.
